Results published in patent US20210186010A1, “SURFACES COMPRISING ATTACHED QUORUM SENSING MODULATORS” (priority 2015, published 2021).

System: Agr QS in the S. aureus reporter strain
Assay: Fluorescence imaging / single-cell analysis of S. aureus reporter strain incubated with compounds in solution
Format: cell-based, Staphylococcus aureus
Conditions: 100 nM AIP-I
From the text: FIG. 1 Includes FIG. 1A-FIG. 1C. FIG. 1A. illustrates the Agr QS responses of S. aureus to exogenously supplied agonists and antagonists. To follow the QS status of S. aureus cells growing on unmodified and chemically-modified surfaces, confocal microscopy and an S. aureus reporter strain that produced the fluorescent protein mKate2 in response to exogenous addition of AIP-I was used. The reporter strain was a ΔagrBDCA ΔRNAIII S. aureus mutant harboring a multicopy plasmid carrying agrCA driven by the native agrP2 promoter. […] The plasmid also harbored the Agr-activated agrP3 promoter fused to mkate2. Therefore, in response to exogenously provided AIP-I, the reporter strain fluoresced red. This QS response was repressed by the administration of TrAIP-II. A constitutively expressed sarAP1-gfpmut2 gene was introduced into the chromosome to enable normalization of QS responses^18. FIG. 1B. […]
FIG. 1B. Fluorescence images of the S. aureus reporter strain (pathways shown in panel FIG. 1A) after 3 h incubation with buffer or buffer containing 100 nM AIP-I agonist. […] Fluorescence images of the S. aureus reporter strain used in this study following 3 h incubation with TrAIP-II or with combinations of AIP-I and TrAIP-II. […]
FIG. 6. […] To identify the source of heterogeneity, the fluorescent protein distributions in individual cells was measured under different conditions. […]

AIP-I was tested, and the “Coefficient of variation σ/μ of the normalized QS response” value (agrP3-mkate2 and agrP2-agrCA in the genome (FIG. 6E)) was 0.20 (±0.04) and the “Coefficient of variation σ/μ of the normalized QS response” value (reporter strain with agrP2-agrCA and agrP3-mkate2 on plasmid (FIG. 6A)) was 0.69 (±0.03).
